From the NIST ThermoML archive (doi:10.1016/j.tca.2014.11.027) come the findings set out here.

Numbers after ± are expanded uncertainties.

For the data set the following is noted: Liquid; Gas Chromatography.

Take `CCCCO[PH](=O)OCCCC` [dibutyl phosphonate]: the Normal boiling temperature worked out at 272.93 ± 2 °C.
